Pooled drug test results. Numbers come from NIAID ChemDB, via PubChem.

All rows: tests in culture; agent: Sindbis virus; cell line: VERO; endpoint: EC50

Conditions beyond the fields shown may differ between rows. ECn is the concentration giving n% inhibition of infection, replication or growth. An empty or dashed field is not shown.

structure | read by | value
N#CC1=CN(COCCO)S(=O)(=O)N=C1N | - | >400 µg/mL
NC1CSCCN2CCc3c([nH]c4ccccc34)[C@H]12 | cytopathic effect | 2 µg/mL
O=c1[nH]c(=O)n(C2C[C@H](CO)[C@@H](CO)C2)cc1I | - | >100 µg/mL
CCON=C[C@H]1O[C@@H](n2cnc3c(N)ncnc32)[C@H](O)[C@@H]1O | cytopathic effect | >100 µg/mL
CCOC(=O)C1=CN(COCCOC(C)=O)S(=O)(=O)N=C1N | - | >400 µg/mL
Cc1cn([C@H]2OC[C@@H](CO)C2F)c(=O)[nH]c1=O | cytopathic effect | >80 µg/mL
COc1ccc2[nH]c3c(c2c1)CCN1OCSCC(N)[C@@H]31 | cytopathic effect | 0.02 µg/mL
CC1(CO)CCC(Cn2cnc3c(=O)[nH]c(N)nc32)C1(C)C | cytopathic effect | >400 µg/mL
Cc1cn([C@@H]2OC[C@H](CO)[C@H]2O)c(=O)[nH]c1=O | cytopathic effect | >80 µg/mL
OC[C@H]1O[C@H](c2cc(Cl)c(F)cc2F)C[C@@H]1O | cytopathic effect | >80 µg/mL
C=CCc1nc(C)n2c(=O)[nH]cnc12 | cytopathic effect | >200 µg/mL
CO[C@H](CO)[C@@H](O)CCn1cc(C)c(=O)[nH]c1=O | cytopathic effect | >400 µg/mL
CCOC(=O)C1=CSc2nnc(-c3cn(-c4ccccc4)nc3-c3ccccc3)n2N=C1N | cytopathic effect | >16 µg/mL
OC[C@H]1CC(n2cnc3c(NC4CC4)ncnc32)C[C@@H]1CO | - | >100 µg/mL
Nc1ncnc2c1ncn2[C@@H]1C=C(CCl)[C@@H](O)[C@H]1O | cytopathic effect | >40 µg/mL
CO[C@H](CO)[C@@H](O)CCn1ccc(N)nc1=O | cytopathic effect | >400 µg/mL
Nc1nc2c(ncn2[C@H]2OC[C@@H](CO)C2O)c(=O)[nH]1 | cytopathic effect | >16 µg/mL
Nc1ncnc2c1ncn2[C@H]1C[C@@H](CO)[C@H](O)[C@@H]1O | cytopathic effect | >400 µg/mL
COC(=O)[C@]1(C)CCC[C@]2(C)c3cc(Br)c4nc(C)[nH]c4c3CCC12 | plaque count | >4 µg/mL
CC1(C)[C@@H](CO)CC[C@@]1(C)Cn1cnc2c(N)ncnc21 | cytopathic effect | >400 µg/mL
CCOC(=O)CSc1nnc(-c2cn(-c3ccccc3)nc2-c2ccccc2)n1N | cytopathic effect | >16 µg/mL
CC(=O)OCCOCN1C=C(C#N)C(N)=NS1(=O)=O | - | >400 µg/mL
Nc1ncnc2c1ncn2[C@@H]1O[C@H](C=O)C[C@H]1O | cytopathic effect | >200 µg/mL
Cc1nc(CC(O)CO)c2nc[nH]c(=O)n12 | cytopathic effect | >400 µg/mL
O=C(Nn1c(-c2cn(-c3ccccc3)nc2-c2ccccc2)n[nH]c1=S)c1ccccc1 | cytopathic effect | >16 µg/mL
CC(=O)OCCOCN1C(N)=CC(N)=NS1(=O)=O | - | >400 µg/mL
C=C[C@H](O)C1=C[C@@H](n2cnc3c(N)ncnc32)[C@H](O)[C@@H]1O | cytopathic effect | >100 µg/mL
NC1CCCON2CCc3c([nH]c4ccccc34)[C@H]12 | cytopathic effect | 7 µg/mL
C#C[C@@H](O)C1=C[C@@H](n2cnc3c(N)ncnc32)[C@H](O)[C@@H]1O | cytopathic effect | >400 µg/mL
O=c1[nH]n2c(-c3cn(-c4ccccc4)nc3-c3ccccc3)nnc2sc1=O | cytopathic effect | >80 µg/mL
CC1(CO)CCC(Cn2nnc3c(N)nc(N)nc32)C1(C)C | cytopathic effect | >200 µg/mL
CC[C@H](O)C1=C[C@@H](n2cnc3c(N)ncnc32)[C@H](O)[C@@H]1O | cytopathic effect | >250 µg/mL
Nc1ncnc2c1ncn2[C@@H]1C=C(CO)[C@@H](O)[C@H]1O | cytopathic effect | 7 µg/mL
CC1(C)[C@@H](CO)CC[C@@]1(C)Cn1cc(Br)c(=O)[nH]c1=O | cytopathic effect | >400 µg/mL
CC1(CO)CCC(Cn2nnc3c(=O)[nH]c(N)nc32)C1(C)C | cytopathic effect | >200 µg/mL
COC(=O)[C@]1(C)CCC[C@]2(C)c3ccc4[nH]c(C)nc4c3CCC12 | plaque count | >4 µg/mL
C=CC1=C[C@@H](n2cnc3c(N)ncnc32)[C@H](O)[C@@H]1O | cytopathic effect | >200 µg/mL
Nc1ncnc2c1ncn2C(CF)CCCO | cytopathic effect | >400 µg/mL
COC(=O)[C@]1(C)CCC[C@]2(C)c3ccc4[nH]c(C(F)(F)F)nc4c3CCC12 | plaque count | >4 µg/mL
Cc1nn2c(-c3cn(-c4ccccc4)nc3-c3ccccc3)nnc2s1 | cytopathic effect | >3.2 µg/mL
CC1(C)[C@@H](CO)CC[C@@]1(C)Cn1cc(I)c(=O)[nH]c1=O | cytopathic effect | >400 µg/mL
Nc1ncnc2c1ncn2[C@@H]1O[C@H](/C=N/O)C[C@H]1O | cytopathic effect | >400 µg/mL
CC(=O)Nc1nc2c(CC(O)CO)ncn2c(=O)[nH]1 | cytopathic effect | >200 µg/mL
Nc1ncnc2c1ncn2CC[C@H](O)CCO | cytopathic effect | >400 µg/mL
Nc1ncnc2c1ncn2[C@@H]1O[C@H](/C=N/O)[C@@H](O)[C@@H]1O | cytopathic effect | >40 µg/mL
Nc1ccn(CCCC(O)CF)c(=O)n1 | cytopathic effect | >400 µg/mL
O=c1[nH]c(=O)n([C@@H]2C[C@H](CO)C[C@H]2CO)cc1I | - | >100 µg/mL
S=c1[nH]nc(-c2cn(-c3ccccc3)nc2-c2ccccc2)o1 | cytopathic effect | >16 µg/mL
CC1=CC(=O)N(c2ccccc2)S(=O)(=O)N1COCCO | - | >400 µg/mL
Nc1ccn(CC[C@H](O)CCO)c(=O)n1 | cytopathic effect | >400 µg/mL
Nc1ccn([C@@H]2C[C@H](CO)[C@@H](O)[C@H]2O)c(=O)n1 | cytopathic effect | 0.7 µg/mL

The first 4 rows once more:

structure | read by | value
N#CC1=CN(COCCO)S(=O)(=O)N=C1N | - | >400 µg/mL
NC1CSCCN2CCc3c([nH]c4ccccc34)[C@H]12 | cytopathic effect | 2 µg/mL
O=c1[nH]c(=O)n(C2C[C@H](CO)[C@@H](CO)C2)cc1I | - | >100 µg/mL
CCON=C[C@H]1O[C@@H](n2cnc3c(N)ncnc32)[C@H](O)[C@@H]1O | cytopathic effect | >100 µg/mL